Experimental data as given in patent US9051581B2, “Defense peptides against fungal infection and method of their use” (The Curators of the University of Missouri, priority 2010, dated 2015).

Test system: P. pachyrhizi urediniospores
Experiment: Affinity selection of phage-display peptides against germinated urediniospores
Assay type: binding, Phakopsora pachyrhizi
Settings: three affinity-selection rounds against germinated urediniospores; among the 20 bioactive clones

For “ASTIGNLMPGHS (Random peptide insert) [Sp14, 12-mer phage-display selected peptide]”, the “Number of phage-peptide clones recovered” value was 2.

“DHIRISTSYKSP (Random peptide insert) [Sp51, 12-mer phage-display selected peptide]” was tested, and the “Number of phage-peptide clones recovered” value was 1.

With “DRFTSDLRAPDS (Random peptide insert) [Sp61, 12-mer phage-display selected peptide]” the “Number of phage-peptide clones recovered” value was 1.

“FDPHEPTNTRSP (Random peptide insert) [Sp15, 12-mer phage-display selected peptide]” was tested, and the “Number of phage-peptide clones recovered” value was 2.

For “LTKEPATGRAML (Random peptide insert) [Sp18, 12-mer phage-display selected peptide]”, the “Number of phage-peptide clones recovered” value was 4.

For “MLESHAWPPRAI (Random peptide insert) [Sp2]”, the “Number of phage-peptide clones recovered” value was 3.

In the case of “STVASLGKPTKI (Random peptide insert) [Sp8, 12-mer phage-display selected peptide]”, the “Number of phage-peptide clones recovered” value is reported as 1.

For “TFDRHILDTRGS (Random peptide insert) [Sp6, 12-mer phage-display selected peptide]”, the “Number of phage-peptide clones recovered” value was 1.

“TPTRSLDSPHNM (Random peptide insert) [Sp59, 12-mer phage-display selected peptide]” was tested, and the “Number of phage-peptide clones recovered” value was 2.

In the case of “YISPLPNAATIS (Random peptide insert) [Sp5, 12-mer phage-display selected peptide]”, the “Number of phage-peptide clones recovered” value is reported as 1.

With “YNKPSFQDHSVI (Random peptide insert) [Sp39]” the “Number of phage-peptide clones recovered” value was 2.
